Reference: article PMC9404985, “Development of Dicationic Bisguanidine-Arylfuran Derivatives as Potent Agents against Gram-Negative Bacteria” (Antibiotics, 2022)

What was measured:
[1] = system: E. coli MG1655 (CGSC #6300); assay: Antibacterial resazurin assay, laboratory strain; conditions: EC90 basis
[2] = system: A. baumannii (CCUG #57250); assay: Antibacterial activity against isolates (Omnilog, Biolog redox dye); format: cell-based, Acinetobacter baumannii; conditions: ratio EC90 CTX / EC90 compound
Method: (§1) The antibacterial activities of eight compounds (1, 3, 4, 6, 8, 10, 16, and 17) were tested against 10 different isolates of Gram-negative bacteria from human and other sources, two E. coli (CCUG #67180 and CCUG #17620/ATCC #25922, control strain), two K. pneumoniae (CCUG #58547 and CCUG #225T), two P. aeruginosa (CCUG #17619 and CCUG #59347), two A. baumannii (CCUG #57035 and CCUG #57250), E. cloacae (CCUG #6323T), and E. hormaechei (CCUG #58962) in a 96-well plate format. The compounds to test were 3-fold diluted in six steps in cation-adjusted Mueller-Hinton (ca-MH) broth to final concentrations spanning from 30 to 0.12 µM, i.e., a 1667–416,667 times dilution from the 50 mM stocks. Bacterial mass from the ten isolates grown overnight on horse blood or Mueller–Hinton agar plates was suspended in ca-MH and adjusted to a final inoculum cell density of ~5 × 10^5 CFU/mL. For all assays, Biolog redox dye A diluted 100× from the stock solution was used for measurements of all ten isolates (up to a total volume of 120 µL per well). […] All measurements were performed using the Omnilog microplate reader (Biolog, Hayward, CA, USA) where the 96-well plates were read at 15 min intervals for a total of 24 h at 37 °C.

[3] = system: Acinetobacter baumannii CCUG # 57035; assay: MIC of established antibiotics, micro-broth dilution; conditions: CCUG #57035 vs #57250 (Table S3)
[4] = system: K. pneumoniae (CCUG #225T); assay: Antibacterial activity against isolates (Omnilog, Biolog redox dye); format: cell-based, Klebsiella pneumoniae; conditions: analogous ratio (times more potent than CTX)
Method: as §1

| Compound | fold more potent than ampicillin, E. coli [1] [fold] | times more potent than CTX, A. baumannii CCUG #57250 [2] [times] | difference in sensitivity/resistance between the two A. baumannii isolates [3] [×] | other results |
| --- | --- | --- | --- | --- |
| N=C(N)Nc1ccc(-c2ccc(C(=O)N3CCc4cc(NC(=N)N)ccc43)o2)cc1 [Compound 17, (5-(4-guanidinophenyl)furan-2-yl)(5-guanidinoindolin-1-yl)methanone] | 20 |  |  |  |
| N=C(N)Nc1ccc(-c2ccc(-c3ccc(NC(=N)N)cc3Cl)o2)c(Cl)c1 [Compound 1, 2,5-Bis(2-chloro-4-guanidinophenyl)furan] |  | 7 |  |  |
| N=C(N)Nc1ccc2c(c1)CCN2C(=O)c1ccc(-c2ccccc2Cl)o1 [Compound 19, (5-(2-chlorophenyl)furan-2-yl)(5-guanidinoindolin-1-yl)methanone] | 35 |  |  |  |
| CO/N=C(\C(=O)N[C@@H]1C(=O)N2C(C(=O)O)=C(COC(C)=O)CS[C@H]12)c1csc(N)n1 [CTX, Cefotaxime, reference compound] |  |  | 18 |  |
| C[C@@H](O)[C@H]1C(=O)N2C(C(=O)O)=C(S[C@@H]3CN[C@H](C(=O)N(C)C)C3)[C@H](C)[C@H]12 [Meropenem] |  |  | 8 |  |
| N=C(N)Nc1ccc(-c2ccc(-c3ccc(NC(=N)N)cc3)o2)cc1 [Compound 3] |  | 20 |  | potency ratio relative to CTX, K. pneumoniae CCUG #225T [4]: 0.1 |
